Measured values from several laboratories, pooled; numbers as filed in NIAID ChemDB.

Shared fields: whole-cell or culture tests; species: Varicella zoster virus; endpoint: EC50

Conditions beyond the fields shown may differ between rows. ECn is the concentration giving n% inhibition of infection, replication or growth. An empty or dashed field is not shown. a–b is a range or a potency band.

compound,cell line,strain or isolate,method,result
O=c1[nH]c(=O)n([C@H]2C[C@H](O)[C@@H](CO)O2)cc1/C=C/I,HEF,CAQU,plaque count,0.0008 µg/mL
Nc1ncnc2c1ncn2[C@@H]1C[C@H](CO)[C@@H](O)[C@@H]1O,HEL,YS-V10 H12,plaque count,0.9 µg/mL
O=c1[nH]c(=O)n([C@H]2C[C@H](O)[C@@H](CO)O2)cc1/C=C/Br,HEL,13 isolates,plaque count,0.0033 µM
O=c1[nH]c(=O)n([C@H]2C[C@H](O)[C@@H](CO)O2)cc1/C=C\Cl,HEL,YS/R (TK-),plaque count,>40 µg/mL
CCCCCCCc1cc2cn([C@H]3C[C@H](O)[C@@H](CO)O3)c(=O)nc2o1,HEL,YS,plaque count,0.33 µM
CCCCCCOc1ccc(-c2cc3cn([C@H]4C[C@H](O)[C@@H](CO)O4)c(=O)nc3o2)cc1,HEL,YS,cytopathic effect,<0.5 µM
O=c1[nH]c(=O)n([C@H]2C[C@H](O)[C@@H](CO)O2)cc1I,HEL,9/84-A,cytopathic effect / ELISA,>100 µM
CCCCCCCCCCCCc1cc2cn([C@H]3C[C@H](O)[C@@H](CO)O3)c(=O)nc2o1,HEL,OKA,plaque count,0.8 µM
O=c1nc2oc(-c3ccc(Cl)cc3)cc2cn1[C@H]1C[C@H](O)[C@@H](CO)O1,HEL,YS,cytopathic effect,0.5 µM
CC(=O)OCCOCN1c2nc(Cc3ccccc3)[nH]c2C(N)=NS1(=O)=O,HEL,07/1 (TK-),plaque count,>50 µg/mL
O=C(O)P(=O)(O)O,HEL,Clinical isolate VZV-23,cytopathic effect,98.5 µM
O=C(NCc1ccc(Cl)cc1)c1c[nH]c2ccc(CCCO)cc2c1=O,-,RAI,plaque count,0.1 µM
O=C1O/C(=C\Cn2ccc(=O)[nH]c2=O)C(O)=C1O,HEL,TK+,-,>50 µg/mL
CC1(C)[C@@H](CO)CC[C@@]1(C)Cn1nnc2c(=O)[nH]cnc21,HEL,YS/R (TK-),cytopathic effect,>50 µg/mL
Nc1ccn(C[C@@H](CO)OCP(=O)(O)O)c(=O)n1,HEL,OKA YS,plaque count,0.23 µM
CC1(C)[C@@H](CO)CC[C@@]1(C)Cn1cnc2c(=O)[nH]cnc21,HEL,YS,cytopathic effect,>50 µg/mL
Nc1nc2c(ncn2CCC(CO)CO)c(=O)[nH]1,HEL,Oka PFA-resistant/A,cytopathic effect,6.6 µM
Nc1nc(=O)n([C@H]2C[C@H](O)[C@@H](CO)O2)cc1/C=C/Cl,HEL,YS/R (TK-),plaque count,>40 µg/mL
Nc1nc2c(ncn2COC(CO)CO)c(=O)[nH]1,HEL,OKA YS,plaque count,0.95 µM
O=C(O)c1cccn2cc(-c3ccccc3)cc12,MRC-5,G-31,plaque count,>40 µM
C/C=C/c1cccc(-c2cc3cn([C@H]4C[C@H](O)[C@@H](CO)O4)c(=O)nc3o2)c1,HEL,-,-,>12 µM
Nc1ccn(C[C@@H](CO)OCP(=O)(O)O)c(=O)n1,HEL,YS,cytopathic effect,0.58 µM
CCOc1ccc(-c2cc3cn([C@H]4C[C@H](O)[C@@H](CO)O4)c(=O)nc3o2)cc1,HEL,YS/R (TK-),cytopathic effect,>50 µM
Cn1cc(C(=O)NCc2ccc(Cl)cc2)c(=O)c2cc(CN3CCOCC3)ccc21,HFF,SM varicella isolate,plaque count,0.4 µM
COC(=O)c1ccc2cc(-c3ccccc3)cn2c1,MRC-5,G-31,plaque count,>40 µM
O=c1[nH]c(=O)n([C@H]2C[C@H](O)[C@@H](CO)O2)cc1I,HEL,26,plaque count,0.78 µg/mL
O=c1[nH]c(=O)n([C@H]2C[C@H](O)[C@@H](CO)O2)cc1I,HEF,VEX411,cytopathic effect,0.4 µg/mL
NC1=NC2C(C=CN2CC(CO)CCO)C(=O)N1,HEL,OKA,cytopathic effect,0.0043 µg/mL
O=c1[nH]c(=O)n([C@@H]2O[C@H](CO)[C@@H](O)[C@@H]2O)cc1/C=C/Br,HEL,Oka CF1603-resistant,cytopathic effect,>57 µM
O=c1[nH]c(=O)n([C@H]2C[C@H](O)[C@@H](CO)O2)cc1/C=C/Br,HEL,07/1 (TK-),cytopathic effect,>150 µM
COc1ncnc2c1ncn2[C@@H]1O[C@H](CO)[C@@H](O)[C@@H]1O,MRC-5,G-31,cytopathic effect,1.3 µM
Nc1ncnc2c1ncn2[C@@H]1O[C@H](CO)[C@](O)(C(F)(F)F)[C@H]1O,VERO,-,cytopathic effect,>50 µg/mL
Nc1nc2c(ncn2CCC(CO)CO)c(=O)[nH]1,HEL,OKA (TK+),plaque count,0.6 µg/mL
CC1(C)[C@@H](CO)CC[C@@]1(C)Cn1nnc2c(Cl)ncnc21,HEL,07/1 (TK-),cytopathic effect,>50 µg/mL
Cc1cn([C@H]2C/C(=N\O)[C@@H](CO)O2)c(=O)[nH]c1=O,HEL,OKA,cytopathic effect,>200 µg/mL
COC(=O)C(Cc1c[nH]c2ccccc12)NP(=O)(O)OCC1C/C1=C/n1cnc2c(N)ncnc21,HFF,-,cytopathic effect,5 µM
O=C(O)CP(=O)(O)O,HEF,VEX411,cytopathic effect,20 µg/mL
CCCCCCOCCCc1cc2cn([C@H]3C[C@H](O)[C@@H](CO)O3)c(=O)nc2o1,HEL,OKA,plaque count,5.9 µM
O=C1O/C(=C\Cn2cc(C(F)(F)F)c(=O)[nH]c2=O)C(O)=C1O,HEL,TK+,-,>50 µg/mL
CCCCCCCCc1ccc(-c2cc3cn([C@H]4C[C@H](O)[C@@H](CO)O4)c(=O)nc3o2)cc1,HEL,YS,plaque count,0.03 µM
N#Cc1ccn2cc(-c3ccccc3)cc2c1,MRC-5,G-31,plaque count,>40 µM
O=C1OC(C(O)Cn2ccc(=O)[nH]c2=O)C(OCc2ccccc2)=C1OCc1ccccc1,HEL,TK-,-,>50 µg/mL
O[C@@H]1[C@H](O)[C@H](O)CO[C@H]1n1c(Br)nc2cc(Cl)c(Cl)cc21,HFF,-,plaque count,>50 µM
Nc1nc2c(ncn2COC(CO)CO)c(=O)[nH]1,HEL,13 isolates,plaque count,1.45 µM
O=c1nc2oc(CCCC3OCCCO3)cc2cn1[C@H]1C[C@H](O)[C@@H](CO)O1,HEL,OKA,plaque count,>200 µM
O=c1[nH]c(=O)n([C@H]2C[C@H](O)[C@@H](CO)O2)cc1/C=C/Cl,HEL,07/1 (TK-),plaque count,>138 µM
Cc1cn([C@H]2C[C@H](O)[C@@H](CO)O2)c(=S)[nH]c1=O,MRC-5,HOSEN (TK+),plaque count,21.5 µM
Nc1nc2c(ncn2[C@@H]2C[C@H](CO)[C@H]2CO)c(=O)[nH]1,-,-,plaque count,0.1–1 µM
Nc1nc2c(ncn2COC(CO)CO)c(=O)[nH]1,HEL,9/84,cytopathic effect / ELISA,41 µM
C=Cc1cn([C@H]2C[C@H](O)[C@@H](CO)O2)c(=O)[nH]c1=O,HFF,-,cytopathic effect,2.7 µM
Nc1nc2c(ncn2C[C@H](CO)CCO)c(=O)[nH]1,HEL,9/84-A,cytopathic effect / ELISA,>100 µM
Nc1ccn(C[C@@H](CO)OCP(=O)(O)O)c(=O)n1,HEL,13 isolates,plaque count,0.6 µM
CC1(C)[C@@H](CO)CC[C@@]1(C)Cn1ccc(=O)[nH]c1=O,HEL,YS,cytopathic effect,>50 µg/mL
CCCCCCCCCCCCc1cc2cn([C@H]3C[C@H](O)[C@@H](CO)O3)c(=O)nc2[nH]1,HEL,OKA,plaque count,2.4 µM
CN1C=CCC(C(=O)O[C@H]2C[C@H](n3cc(I)c(=O)[nH]c3=O)O[C@@H]2CO)=C1,HFF,-,cytopathic effect,35.8 µM
Nc1nc(=S)n([C@@H]2O[C@H](CO)[C@@H](O)[C@@H]2O)cc1/C=C/c1ccccc1,MRC-5,HOSEN (TK+),plaque count,222.5 µM
CCCCCCc1cc2cn([C@H]3C[C@H](O)[C@@H](CO)O3)c(=O)nc2s1,HEL,YS,plaque count,0.08 µM
O=c1[nH]c(=O)n([C@H]2C[C@H](O)[C@@H](CO)O2)cc1I,HFF,-,cytopathic effect,11 µM
CCCc1cn([C@H]2C[C@H](O)[C@@H](CO)O2)c(=O)[nH]c1=O,HEL,OKA YS,plaque count,>185 µM
Nc1nc2c(ncn2CCC(O)CO)c(=O)[nH]1,HEL,9/84-A,cytopathic effect / ELISA,>400 µM
Nc1nc2c(ncn2COCCO)c(=O)[nH]1,HFF,-,plaque count,0.7 µM
O=c1[nH]c(=O)n([C@H]2C[C@H](O)[C@@H](CO)O2)cc1/C=C/Br,HEF,Ohtomo,plaque count,0.0012 µg/mL
O=c1nc2oc(CCOC3CCCCO3)cc2cn1[C@H]1C[C@H](O)[C@@H](CO)O1,HEL,YS/R (TK-),plaque count,>40 µM
Nc1ccn(C[C@@H](CO)OCP(=O)(O)O)c(=O)n1,HEL,Oka CF1743-resistant,cytopathic effect,0.05 µM
Cc1cn([C@@H]2O[C@H](CO)[C@](O)(C(F)(F)F)[C@H]2O)c(=O)[nH]c1=O,VERO,-,cytopathic effect,>50 µg/mL
Nc1ccn(CSC(CO)CO)c(=O)n1,MRC-5,6350,plaque count,>50 µM
CC(=O)c1c(-c2ccc(C#N)cc2)cc2ccccn12,MRC-5,G-31,plaque count,5 µM
CCCCCOc1ccc(-c2cc3cn([C@H]4C[C@H](O)[C@@H](CO)O4)c(=O)nc3o2)cc1,HEL,YS/R (TK-),cytopathic effect,>50 µM
CCc1cn([C@H]2C[C@H](O)[C@@H](CO)O2)c(=S)[nH]c1=O,MRC-5,Kanno-Kohmura (TK-),plaque count,>288.6 µM
NC1=NS(=O)(=O)N(Cc2ccccc2)c2nc(-c3ccc(Cl)cc3)[nH]c21,HEL,YS/R (TK-),plaque count,4 µg/mL
c1ccc(-c2cc3ccccn3c2)cc1,MRC-5,G-31,plaque count,20 µM
CCCCCCCCCCc1cc2cn([C@H]3C[C@H](O)[C@@H](CO)O3)c(=O)nc2o1,HEL,07/1 (TK-),plaque count,>50 µM
CC(=O)c1c(-c2ccc(Cl)c(Cl)c2)cc2ccccn12,MRC-5,G-31,plaque count,10 µM
Nc1nc(N)c2ncn(CCOCP(=O)(O)O)c2n1,HEL,OKA (TK+),plaque count,4.6 µM
Nc1ncnc2c1ncn2[C@@H]1C[C@H](CO)[C@@H](O)[C@@H]1O,HEL,9/84-A,cytopathic effect / ELISA,35 µM
Nc1nc2c(ncn2COC(CO)CO)c(=O)[nH]1,HEL,07/1 (TK-),cytopathic effect,14 µM
Nc1nc(=S)n([C@@H]2O[C@H](CO)[C@@H](O)[C@@H]2O)cc1/C=C/Br,MRC-5,HOSEN (TK+),plaque count,65.4 µM
O=c1[nH]c(=O)n([C@H]2C[C@H](O)[C@@H](CO)S2)cc1C1CCCCC1,HEL,OKA YS,plaque count,≥125 µM
O=C(O)P(=O)(O)O,HEL,9/84-C,cytopathic effect / ELISA,141 µM
Brc1sccc1-c1cc2ccccn2c1,MRC-5,G-31,plaque count,10 µM
Nc1nc2c(ncn2C[C@]2(CO)C[C@H]2CO)c(=O)[nH]1,HEL,YS (TK+),plaque count,0.04 µg/mL

For reference, 4 entries again:

compound | cell line | strain or isolate | method | result
Nc1nc2c(ncn2CCC(O)CO)c(=O)[nH]1 | HEL | 9/84-A | cytopathic effect / ELISA | >400 µM
CCCCCCCCCCCCc1cc2cn([C@H]3C[C@H](O)[C@@H](CO)O3)c(=O)nc2[nH]1 | HEL | OKA | plaque count | 2.4 µM
O=c1nc2oc(-c3ccc(Cl)cc3)cc2cn1[C@H]1C[C@H](O)[C@@H](CO)O1 | HEL | YS | cytopathic effect | 0.5 µM
Nc1nc2c(ncn2C[C@H](CO)CCO)c(=O)[nH]1 | HEL | 9/84-A | cytopathic effect / ELISA | >100 µM